PubChem BioAssay AID1259414, Drosophila RNAi Screening Center, 2018
Assay: 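Genome-wide screen for host control of endosymbiont load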 (primary screen). Cell system: Drosophila JW18 cells infected with Wolbachia. Knock-down reagent: long dsRNA against Drosophila genes, 0.25 µg dsRNA per well of a 384-well plate. Time to read-out: 5 days. Challenge: cells persistently infected with Wolbachia before knock-down; no added drug. Measurement: 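Imaged fluorescence in situ signal for Wolbachia 23S rRNA per DAPI-counted host cell, given as a robust z-score within each plate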. Direction: Wolbachia per cell robust z: higher = more Wolbachia per host cell than the plate typical. Active means: 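Hit when robust z is 1.5 or more, or -1.5 or less, in at least two of three replicates; excludes dsRNAs with several or no targets, genes not expressed in JW18 and well A1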.
In all, the deposit lists about 24,000 reagents; shown is an unselected part of those with a known target gene and a result. Of all reagents, about 1,210 (5%) are marked active. 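Inactive calls also include excluded dsRNAs with several or no targets, genes unexpressed in JW18, and well A1, regardless of score.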 Unmarked entries are inactive. A plus sign joins genes that one reagent is predicted to hit.

predicted target | amplicon | Wolbachia per cell robust z, rep 1 | Wolbachia per cell robust z, rep 2 | Wolbachia per cell robust z, rep 3
CG12016 + Dpm2 | DRSC08224 | 0.0438 | 0.967 | 0.337
crq | DRSC00810 | -0.177 | 0.45 | 2.39
Muc14A | DRSC23264 | 0.668 | -1.39 | 1.18
Muc14A | DRSC38613 | -1.55 | -5.66 | 0.14
Gel | DRSC12350 | 0.274 | -1.12 | 0.468
Gel | DRSC24569 | 0.961 | 0.459 | 0.934
Sps1 | DRSC07549 | 0.591 | 0.984 | 0.915
Sps1 | DRSC41456 | 0.575 | 0.424 | 1.34
CG6761 | DRSC10705 | 0.341 | 0.769 | -0.104
coro | DRSC05007 | -0.3 | 0.0559 | -0.915
coro | DRSC21417 | 0.436 | -1.45 | -0.301
wbl | DRSC07718 | 0.129 | -0.835 | 0.0733
wbl | DRSC26561 | 0.845 | -1.85 | -0.223
RN-tre | DRSC07521 | -0.445 | -0.729 | 0.19
RN-tre | DRSC28214 | 0.363 | -0.249 | -0.348
orb | DRSC23148 | -3.39 | -0.252 | -0.583
CG2617 | DRSC02712 | -1.24 | 1.31 | 1.32
CG2617 | DRSC24947 | 0.765 | -0.33 | 0.516
CG15083 | DRSC06514 | -3.45 (active) | -0.436 | -3.42
Sox15 | DRSC07555 | 1.14 | 0.573 | 0.823
Sox15 | DRSC28528 | -0.625 | -0.425 | -0.422
CG3679 | DRSC19346 | 0.154 | 0.404 | -0.62
CG3679 | DRSC25833 | 0.847 | -1.26 | -1.78
CG32117 | DRSC21652 | 0.97 | -0.0456 | -0.392
cass | DRSC01850 | 1.64 | 0.604 | 0.479
cass | DRSC29928 | -3.79 (active) | -1.78 | 0.615
fbp | DRSC02077 | -0.238 | -7.5 | 0.0608
fbp | DRSC41590 | 0.342 | 0.905 | 0.561
CG12567 + CR41519 + CR42530 | DRSC40554 | 0.093 | -0.255 | -2.26
CG31760 | DRSC02590 | -1.24 | -0.379 | 0.764
CG31760 | DRSC27108 | 0.387 | 1.42 | -0.534
PGAP3 | DRSC04989 | -3.83 | 0.685 | 0.0766
r | DRSC19813 | -3.58 | 0.23 | -0.441
r | DRSC19814 | -0.698 | 1.36 | 0.763
r | DRSC39150 | -2.62 (active) | -3.96 | -0.446
Dsor1 | DRSC18462 | -1.03 | 1.4 | -0.511
Dsor1 | DRSC27547 | 0.527 | 0.124 | -0.106

Next part; the last 4 above are carried over.
predicted target | amplicon | Wolbachia per cell robust z, rep 1 | Wolbachia per cell robust z, rep 2 | Wolbachia per cell robust z, rep 3
r | DRSC19814 | -0.698 | 1.36 | 0.763
r | DRSC39150 | -2.62 (active) | -3.96 | -0.446
Dsor1 | DRSC18462 | -1.03 | 1.4 | -0.511
Dsor1 | DRSC27547 | 0.527 | 0.124 | -0.106
St1 | DRSC04504 | 0.773 | -3.89 | -2.36
St1 | DRSC25543 | -0.831 | -0.493 | 0.973
CG2816 | DRSC00539 | -4.57 | 0.354 | -0.175
CG2816 | DRSC24375 | 0.159 | -0.00773 | 0.191
CG5618 | DRSC11780 | 0.476 | -1.02 | -4.6
CG5618 | DRSC28806 | 0.885 | 1.17 | 0.479
su(w[a]) | DRSC18840 | -0.563 | -0.926 | 0.412
su(w[a]) | DRSC29287 | 0.996 | 0.685 | 0.642
ACOX1 | DRSC05941 | 1.34 | 0.196 | 0.0063
ACOX1 | DRSC24604 | 0.00556 | -0.18 | 2.02
l(3)76BDm | DRSC11047 | -0.149 | -0.131 | 0.264
SsRbeta | DRSC11290 | -0.248 | 0.13 | -1.13
Vkor | DRSC37855 | 0.534 | 1.18 | 0.351
CG31029 | DRSC15422 | -2.11 | 0.378 | -1.21
CG31029 | DRSC29559 | -0.187 | 1 | 1.41
CG17065 | DRSC20544 | 0.482 | 0.0697 | -6.34
CG17065 | DRSC26822 | -0.092 | -0.186 | -0.433
OtopLa | DRSC18133 | 1.04 | 1.45 | 0.899
OtopLa | DRSC23226 | 0.502 | -0.758 | -0.0775
OtopLa | DRSC29861 | -0.68 | -1.7 | -1.26
JMJD7 | DRSC09703 | 0.936 | 0.638 | -0.978
CG34193 | DRSC38866 | 0.543 | -0.566 | 0.611
Acox57D-p | DRSC04560 | 0.362 | -1.17 | 0.0252
Ugt301D1 | DRSC02021 | -0.318 | -0.0093 | -0.258
CG12522 | DRSC09088 | 0.0336 | 0.796 | 0.642
CG12522 | DRSC25372 | 0.316 | -0.158 | -0.26
Gdi | DRSC03330 | -0.624 | -0.0617 | 0.134
Gdi | DRSC28978 | 0.156 | -2.29 | -0.79
SteXh:CG42398 + Ste:CG33244 + Ste:CG33246 + 11 more | DRSC19004 | -7.59 | 0.49 | -2.23
Nt5c | DRSC06711 | -1.08 | 1.26 | 1.75
Nt5c | DRSC27240 | 0.236 | 1.02 | 1.1
